Data: paper PMC2722786

Columns and labels:
CC(=O)NCCSC(=O)c1ccccc1 = experiment: purified protein; conditions: hydrolysis, no butanol or other exogenous nucleophile
[1] = test system: CCC(=O)C(C)C(=O)SCCNC(C)=O; experiment: purified protein; conditions: hydrolysis; rate not dependent on butanol

## Zea TE (thioesterase from PKS13) (Fusarium graminearum PH-1)
CC(=O)NCCSC(=O)c1ccccc1
  Km: 78 ± 8 µM
  kcat: 1.18 ± 0.03 s⁻¹
[1]
  Km: 4400 ± 1000 µM
  kcat: 0.39 ± 0.05 s⁻¹
